Tested on: HIV-1 (IIIB strain)
Assay: Anti-HIV-1 assay: inhibition of virus-induced cytopathicity in acutely infected MT-4 cells (MTT)
Assay type: cell-based
Procedure: Compounds. Compounds were solubilized in DMSO at 200 mM and then diluted into culture medium.
Cells and viruses. MT-4, C8166, H9/IIIB and CEM cells were grown at 37° C. in a 5% CO2 atmosphere in RPMI 1640 medium, supplemented with 10% fetal calf serum (FCS), 100 UI/mL penicillin and 100 μg/mL streptomycin. Cell cultures were checked periodically for the absence of mycoplasma contamination with a MycoTect Kit (Gibco). Human immunodeficiency virus type-1 (HIV-1, IIIB strain) was obtained from supernatants of persistently infected H9/IIIB cells.
Anti-HIV assays. Activity of the compounds against HIV-1 and HIV-2 multiplication in acutely infected cells was based on the inhibition of virus-induced cytopathicity in MT-4 and C8166 cells, respectively. Briefly, 50 μL of culture medium containing 1×10^4 cells were added to each well of flat-bottom microtiter trays containing 50 μl of culture medium with or without various concentrations of the test compounds. Then 20 μL of an HIV suspension containing 100 CCID50 were added. After a 4-day incubation at 37° C., the number of viable cells was determined by the 3-(4,5-dimethylthiazol-[…])-2,5-diphenyltetrazolium bromide (MTT) method. Cytotoxicity of the compounds was evaluated in parallel with their antiviral activity. It was based on the viability of mock-infected cells, as monitored by the MTT method.

Row | Compound | SI (selectivity index, CC50/EC50 ratio) | SI: selectivity index, CC50/EC50 ratio (CC50 (mock-infected cells) / EC50 (HIV-1 in MT-4 cells))
1 | CCC(c1cc(=O)[nH]c(SC2CCCC2)n1)c1cccc2ccccc12 (stereo not shown) [MC 973] | 17 | 
2 | CC(c1cc(=O)[nH]c(SC2CCCCC2)n1)c1cccc2ccccc12 (stereo not shown) [MC 974] | 321.4 | 
3 | CCC(c1cc(=O)[nH]c(SC2CCCCC2)n1)c1cccc2ccccc12 (stereo not shown) [MC 975] | 94 | 
4 | CC(C)Nc1nc(Cc2c(F)cccc2F)cc(=O)[nH]1 [MC 979] | >526 | 
5 | O=c1cc(Cc2c(F)cccc2F)nc(NC2CC2)[nH]1 [MC 980] | >63 | 
6 | CC(c1cc(=O)[nH]c(SC2CCCC2)n1)c1c(Cl)cccc1Cl (stereo not shown) [MC 996] | 78.3 | 
7 | CCC(c1cc(=O)[nH]c(SC(C)C)n1)c1c(Cl)cccc1Cl (stereo not shown) [MC 1000] | >500 | 
8 | CCC(c1cc(=O)[nH]c(SC2CCCC2)n1)c1c(Cl)cccc1Cl (stereo not shown) [MC 1002] | 23.4 | 
9 | CCC(c1cc(=O)[nH]c(SC2CCCCC2)n1)c1c(Cl)cccc1Cl (stereo not shown) [MC 1003] | >55.5 | 
10 | CCC(c1cc(=O)[nH]c(SC(C)C)n1)c1c(F)cccc1F (stereo not shown) [MC 1005] | 875 | 
11 | CCC(c1cc(=O)[nH]c(SC2CCCC2)n1)c1c(F)cccc1F (stereo not shown) [MC 1006] | 1,333 | 
12 | CC(C)Sc1nc(C(C)c2c(F)cccc2F)cc(=O)[nH]1 (stereo not shown) [MC 1007] | 3,340 | 
13 | CC(c1cc(=O)[nH]c(SC2CCCC2)n1)c1c(F)cccc1F (stereo not shown) [MC 1008] | >6,666 | 
14 | CC(c1cc(=O)[nH]c(SC2CCCCC2)n1)c1c(F)cccc1F (stereo not shown) [MC 1013] | >1,250 | 
15 | CCC(c1cc(=O)[nH]c(SC2CCCCC2)n1)c1c(F)cccc1F (stereo not shown) [MC 1014] | 2,600 | 
16 | O=c1cc(Cc2c(F)cccc2F)nc(NC2CCCC2)[nH]1 [MC 1022] | >2,222 | 
17 | CCc1c(Cc2c(F)cccc2F)nc(SC(C)C)[nH]c1=O [MC 1037] | 326 | 

Row | Compound | SI (selectivity index, CC50/EC50 ratio) | SI: selectivity index, CC50/EC50 ratio (CC50 (mock-infected cells) / EC50 (HIV-1 in MT-4 cells))
18 | CCc1c(Cc2c(F)cccc2F)nc(SC(C)CC)[nH]c1=O (stereo not shown) [MC 1038] | >2,000 | 
19 | CC(C)Sc1nc(Cc2c(F)cccc2F)c(C(C)C)c(=O)[nH]1 [MC 1039] | >500 | 
20 | COCCNc1nc(Cc2c(F)cccc2F)cc(=O)[nH]1 [MC 1043] | >250 | 
21 | CC(C)CSc1nc(C(C)c2c(F)cccc2F)cc(=O)[nH]1 (stereo not shown) [MC 1044] | >4,000 | 
22 | CCCCSc1nc(C(C)c2c(F)cccc2F)cc(=O)[nH]1 (stereo not shown) [MC 1045] | 2,857 | 
23 | Cc1c([C@@H](C)c2c(F)cccc2F)nc(SC2CCCC2)[nH]c1=O [MC 1047] | >22,222 | 
24 | CC(c1cc(=O)[nH]c(NC2CCCC2)n1)c1c(F)cccc1F (stereo not shown) [MC 1048] | 2,500 | 
25 | O=c1cc(Cc2c(F)cccc2F)nc(NC2CCCCC2)[nH]1 [MC 1049] | 471 | 
26 | Cc1c(Cc2c(F)cccc2F)nc(NC2CCCC2)[nH]c1=O [MC 1050] | >10,000 | 
27 | CCCCNc1nc(Cc2c(F)cccc2F)cc(=O)[nH]1 [MC 1077] | 1,000 | 
28 | CCCNc1nc(Cc2c(F)cccc2F)cc(=O)[nH]1 [MC 1078] | 1,818 | 
29 | O=c1cc(Cc2c(F)cccc2F)nc(OC2CCCC2)[nH]1 [MC 1103] | >10 | 
30 | CCC(C)Sc1nc(C(C)c2c(F)cccc2F)c(C)c(=O)[nH]1 (stereo not shown) [MC 1109] | >6,666 | 
31 | CCC(C)Sc1nc(C(C)c2c(F)cccc2F)cc(=O)[nH]1 (stereo not shown) [MC 1110] | >6,666 | 
32 | Cc1c(C(C)c2c(F)cccc2F)nc(NC2CCCC2)[nH]c1=O (stereo not shown) [MC 1129] | 4,500 | 
33 | CCC(C)Nc1nc(Cc2c(F)cccc2F)c(C)c(=O)[nH]1 (stereo not shown) [MC 1130] | 2,857 | 
34 | CSCSc1nc(Cc2ccccc2)cc(=O)[nH]1 [MC 1140] |  | >10

— patent publication US6635636B1, “Substituted 6-benzyl-4-oxopyrimidines, process for their preparation and pharmaceutical compositions containing them” (Idenix Pharmaceuticals, Inc., priority 1998, dated 2003)
